Measured values taken from US20240109955A1 (published 2024).
Where two headings read alike, the source gives them in different places.

Columns and labels:
Assay in all cases: cell-based or functional assay
[1] = target: T1, SARS-CoV-2 spike (S) protein, Omicron sublineage XBB1.5 (SARS-CoV-2)
[2] = target: SARS-CoV-2 spike (S) protein, Omicron sublineage BF.7 (SARS-CoV-2)
[3] = target: T1, SARS-CoV-2 spike (S) protein, Omicron …; remark: listed apart in the source
[4] = target: SARS-CoV-2 spike (S) protein, Omicron sublineage BA.2.75.2 (SARS-CoV-2)
[5] = target: SARS-CoV-2 spike (S) protein, Omicron sublineage BQ.1.1 (SARS-CoV-2)
[6] = target: SARS-CoV-2 spike (S) protein, Omicron sublineage BQ.1 (SARS-CoV-2)
[7] = target: SARS-CoV-2 spike (S) protein, Omicron sublineage CH.1.1 (SARS-CoV-2)
[8] = target: SARS-CoV-2 spike (S) protein, Omicron sublineage XBB (SARS-CoV-2)
[9] = target: SARS-CoV-2 spike (S) protein, Omicron sublineage BA.4/5 (SARS-CoV-2)
[10] = target: SARS-CoV-2 Omicron BA.4.6 spike protein (SARS-CoV-2, UniProt P0DTC2 14-1273)
[11] = target: SARS-CoV-2 Omicron BF.7 spike protein (SARS-CoV-2, UniProt P0DTC2 14-1273)
[12] = target: SARS-CoV-2 Omicron BA.4/5 spike protein (SARS-CoV-2, UniProt P0DTC2 14-1273)
[13] = target: SARS-CoV-2 Omicron BQ.1.1 spike protein (SARS-CoV-2, UniProt P0DTC2 14-1273)
[14] = target: SARS-CoV-2 Omicron BA.2.75.2 spike protein (SARS-CoV-2, UniProt P0DTC2 14-1273)
[15] = target: SARS-CoV-2 Omicron XBB spike protein (SARS-CoV-2, UniProt P0DTC2 14-1273)
[16] = target: SARS-CoV-2 Omicron BQ.1 spike protein (SARS-CoV-2)
[17] = target: SARS-CoV-2 Omicron BA.2.75.2 spike protein (SARS-CoV-2)
[18] = target: SARS-CoV-2 Omicron XBB1.5 spike protein (SARS-CoV-2)
[19] = target: SARS-CoV-2 Omicron BA.4/5 spike protein (SARS-CoV-2)
[20] = target: SARS-CoV-2 Omicron CH.1.1 spike protein (SARS-CoV-2)
[21] = target: SARS-CoV-2 Omicron BQ.1.1 spike protein (SARS-CoV-2)
[22] = target: SARS-CoV-2 Omicron XBB spike protein (SARS-CoV-2)

B1: A46 + E12 + E8 + A58VGLTG (other)
VH 1: QVQLVESGGGVVQPGRSLRLSCAASGFTLSSYGMHWVRQAPGKGLEWVAVISYDGSNKYYVDSVKGRFTISRDNSKNTLYLQMNSLRAEDTAVYYCRWAYWELLPDYYYGMDVWGQGTTVTVSS
VL 1: QTVVTQEPSFSVSPGGTVTLTCGLSSGSVSTAYFPSWYQQTPGQAPRTLIYGTNTRSSGVPDRFSGSILGNKAALTITGAQADDESDYYCVLYMGRGIVVFGGGTKLTVL
VH 2: EVQLVESGGGLIQPGGSLRLSCAASGVIVSYNYMNWVRQAPGKGLEWVSVIYSGGSTFYADSVRGRFTISRDNSKNTLYLQMNSLRAEDTAVYYCARDLGPAGAFDIWGLGTMVTVSS
VL 2: EIVLTQSPGTLSLSPGETATLSCRASQSFSSDLAWYQQKPGQAPRLLIYGASSRATGIPDRFSGSGSGTDFTLTISRLEPADFAVYYCQQYGSSPPVTFGGGTKVEIK
VH 3: QVTLRESGPALVKPTQTLTLTCTFSGFSLSTRGVCVSWIRQPPGKALEWLAFIDWDDDKYYNTSLKTRLTISKDTSKNQVVLTMTNVHPVDTATYYCARISSHHGSSWCTTFDYWGQGALVTVSA
VL 3: DTVMTQSPLSLPVTPGEPASISCRSSQSLLNSNGYNYLDWYVQKPGQSPQLLIYLGSNRASGVPDRFSGSGSGTDFTLKISRVEAEDVGVYYCMQPLQTPLFTFGPGTKVEIK
VH 4: QMQLVQSGPEVKKPGTSVKVSCKASGFTFTSSAVQWVRQRQRLEWIGWIVVGSGNTNYAQKFQERVTITRDMSTSTAYMELSSLRSEDTAVYYCAAPNCSNVVCYDGFDIWGQGTMVTVSS
VL 4: EIVLTQSPGTLSLSPGERATLSCRASQSVSSSYLAWYQQKPGQAPRLLIYSASSRATGIPDRFSGSGSGTDFTLTISRLEPEDFAVYFCQQYVGLTGWTFGQGTKVEIK
In the case of B1, the “IC50, pseudovirus neutralization” value [1] is reported as 20.9 nM, the “IC80, pseudovirus neutralization” value [1] is reported as 49.7 nM and the “IC50, pseudovirus neutralization” value [2] is reported as 3.57 nM. For the same binder, the “IC80, pseudovirus neutralization” value [2] was 15.5 nM.

B2: MX1055 (trispecific antibody)
chain 1: EIVMTQSPAILSVSPGERATLSCRASQSVAINLAWYQQKPGQAPRLLIYAASSRATGIPGRFSGSGSETNFTLTISSLQSGDFAVYYCQQYITWPPSYTFGQGTKLEIKGGSSGDTVMTQSPLSLPVTPGEPASISCRSSQSLLNSNGYNYLDWYVQKPGQSPQLLIYLGSNRASGVPDRFSGSGSGTDFTLKISRVEAEDVGVYYCMQPLQTPLFTFGPGTKVEIKGGGGSGGSGSGGGGSASGSGQVTLRESGPALVKPTQTLTLTCTFSGFSLSTRGVCVSWIRQPPGKALEWLAFIDWDDDKYYNTSLKTRLTISKDTSKNQVVLTMTNVHPVDTATYYCARISSHHGSSWCTTFDYWGQGALVTVSAGGSSGEVQLVESGGALIQPGGSLRLSCAASGIIVSANYMSWVRQAPGKGLEWVSVIYSGGSTFYADSVKGRFTISRDNSKNTLYLEMNSLRAEDTAVYYCARDAPILGVSDWGQGTLVTVSSASGGSGDKTHTCPPCPAPELLGGPSVFLFPPKPKDTLMISRTPEVTCVVVDVSHEDPEVKFNWYVDGVEVHNAKTKPREEQYNSYVVSVLTVLHQDWLNGKEYKCKVSNKALPAPIEKTISKAKGQPREPQVYTLPPCRDELTKNQVSLWCLVKGFYPSDIAVEWESNGQPENNYKTTPPVLDSDGSFFKKLTVDKSRWQQGNVFSCSVLHEALHSHYTQKSLSLSPG
chain 2: DTVMTQSPLSLPVTPGEPASISCRSSQSLLNSNGYNYLDWYVQKPGQSPQLLIYLGSNRASGVPDRFSGSGSGTDFTLKISRVEAEDVGVYYCMQPLQTPLFTFGPGTKVEIKGGSSGQTVVTQEPSFSVSPGGTVTLTCGLSSGSVSTAYFPSWYQQTPGQAPRTLIYGTNTRSSGVPDRFSGSILGNKAALTITGAQADDESDYYCVLYMGRGIVVFGGGTKLTVLGGGGSGGSGSGGGGSASGSGQVQLVESGGGVVQPGRSLRLSCAASGFTLSSYGMHWVRQAPGKGLEWVAVISYDGSNKYYVDSVKGRFTISRDNSKNTLYLQMNSLRAEDTAVYYCRWAYWELLPDYYYGMDVWGQGTTVTVSSGGSSGQVTLRESGPALVKPTQTLTLTCTFSGFSLSTRGVCVSWIRQPPGKALEWLAFIDWDDDKYYNTSLKTRLTISKDTSKNQVVLTMTNVHPVDTATYYCARISSHHGSSWCTTFDYWGQGALVTVSAASGGSGDKTHTCPPCPAPELLGGPSVFLFPPKPKDTLMISRTPEVTCVVVDVSHEDPEVKFNWYVDGVEVHNAKTKPREEQYNSYVVSVLTVLHQDWLNGKEYKCKVSNKALPAPIEKTISKAKGQPREPQVCTLPPSRDELTKNQVSLSCAVKGFYPSDIAVEWESNGQPENNYKTTPPVLDSDGSFFLVSKLTVDKSRWQQGNVFSCSVLHEALHSHYTQKSLSLSPG
For B2, the “IC50, pseudovirus neutralization” value [3] was 0.0236 µg/mL, the “IC80, pseudovirus neutralization” value [3] was 0.0679 µg/mL and the “IC50, pseudovirus neutralization” value [4] was 0.00232 µg/mL. The “IC80, pseudovirus neutralization” value [4] was 0.00723 µg/mL, the “IC50, pseudovirus neutralization” value [5] was 0.00012 µg/mL and the “IC80, pseudovirus neutralization” value [5] was 0.00341 µg/mL. The “IC50, pseudovirus neutralization” value [6] was 0.016 µg/mL, the “IC80, pseudovirus neutralization” value [6] was 0.0606 µg/mL and the “IC50, pseudovirus neutralization” value [7] was 0.125 µg/mL. The “IC80, pseudovirus neutralization” value [7] was 0.862 µg/mL, the “IC50, pseudovirus neutralization” value [8] was 0.00839 µg/mL and the “IC80, pseudovirus neutralization” value [8] was 0.0327 µg/mL. The “IC50, pseudovirus neutralization” value [9] was 0.0013 µg/mL and the “IC80, pseudovirus neutralization” value [9] was 0.00332 µg/mL.

B3: MX1018 (antibody)
chain: EIVMTQSPAILSVSPGERATLSCRASQSVAINLAWYQQKPGQAPRLLIYAASSRATGIPGRFSGSGSETNFTLTISSLQSGDFAVYYCQQYITWPPSYTFGQGTKLEIKGGSSGEIVMTQSPAILSVSPGERATLSCRASQSVAINLAWYQQKPGQAPRLLIYAASSRATGIPGRFSGSGSETNFTLTISSLQSGDFAVYYCQQYITWPPSYTFGQGTKLEIKGGGGSGGSGSGGGGSASGSGEVQLVESGGALIQPGGSLRLSCAASGIIVSANYMSWVRQAPGKGLEWVSVIYSGGSTFYADSVKGRFTISRDNSKNTLYLEMNSLRAEDTAVYYCARDAPILGVSDWGQGTLVTVSSGGSSGEVQLVESGGALIQPGGSLRLSCAASGIIVSANYMSWVRQAPGKGLEWVSVIYSGGSTFYADSVKGRFTISRDNSKNTLYLEMNSLRAEDTAVYYCARDAPILGVSDWGQGTLVTVSSASGGSGDKTHTCPPCPAPELLGGPSVFLFPPKPKDTLMISRTPEVTCVVVDVSHEDPEVKFNWYVDGVEVHNAKTKPREEQYNSYVVSVLTVLHQDWLNGKEYKCKVSNKALPAPIEKTISKAKGQPREPQVYTLPPSRDELTKNQVSLTCLVKGFYPSDIAVEWESNGQPENNYKTTPPVLDSDGSFFKKLTVDKSRWQQGNVFSCSVLHEALHSHYTQKSLSLSPG
With B3 the “IC50, pseudovirus neutralization” value [10] was 0.00409 µg/mL, the “IC80, pseudovirus neutralization” value [10] was 0.011 µg/mL and the “IC50, pseudovirus neutralization” value [11] was 0.0066 µg/mL. For the same binder, the “IC80, pseudovirus neutralization” value [11] was 0.0201 µg/mL, the “IC50, pseudovirus neutralization” value [12] was 0.0107 µg/mL and the “IC80, pseudovirus neutralization” value [12] was 0.0581 µg/mL. For the same binder, the “IC50, pseudovirus neutralization” value [13] was 0.00433 µg/mL, the “IC80, pseudovirus neutralization” value [13] was 0.0119 µg/mL and the “IC50, pseudovirus neutralization” value [14] was 0.00409 µg/mL. For the same binder, the “IC80, pseudovirus neutralization” value [14] was 0.011 µg/mL, the “IC50, pseudovirus neutralization” value [15] was 0.0066 µg/mL and the “IC80, pseudovirus neutralization” value [15] was 0.0201 µg/mL.

B4: MX1043 (bispecific antibody)
chain: EIVLTQSPGTLSLSPGETATLSCRASQSFSSDLAWYQQKPGQAPRLLIYGASSRATGIPDRFSGSGSGTDFTLTISRLEPADFAVYYCQQYGSSPPVTFGGGTKVEIKGGSSGQTVVTQEPSFSVSPGGTVTLTCGLSSGSVSTAYFPSWYQQTPGQAPRTLIYGTNTRSSGVPDRFSGSILGNKAALTITGAQADDESDYYCVLYMGRGIVVFGGGTKLTVLGGGGSGGSGSGGGGSASGSGQVQLVESGGGVVQPGRSLRLSCAASGFTLSSYGMHWVRQAPGKGLEWVAVISYDGSNKYYVDSVKGRFTISRDNSKNTLYLQMNSLRAEDTAVYYCRWAYWELLPDYYYGMDVWGQGTTVTVSSGGSSGEVQLVESGGGLIQPGGSLRLSCAASGVIVSYNYMNWVRQAPGKGLEWVSVIYSGGSTFYADSVRGRFTISRDNSKNTLYLQMNSLRAEDTAVYYCARDLGPAGAFDIWGLGTMVTVSSASGGSGDKTHTCPPCPAPELLGGPSVFLFPPKPKDTLMISRTPEVTCVVVDVSHEDPEVKFNWYVDGVEVHNAKTKPREEQYNSYVVSVLTVLHQDWLNGKEYKCKVSNKALPAPIEKTISKAKGQPREPQVYTLPPSRDELTKNQVSLTCLVKGFYPSDIAVEWESNGQPENNYKTTPPVLDSDGSFFKKLTVDKSRWQQGNVFSCSVLHEALHSHYTQKSLSLSPG
For B4, the “IC50, pseudovirus neutralization” value [16] was 0.00264 µg/mL, the “IC80, pseudovirus neutralization” value [16] was 0.0151 µg/mL and the “IC50, pseudovirus neutralization” value [17] was 0.00206 µg/mL. The “IC80, pseudovirus neutralization” value [17] was 0.00401 µg/mL, the “IC50, pseudovirus neutralization” value [18] was 0.0687 µg/mL and the “IC80, pseudovirus neutralization” value [18] was 0.155 µg/mL. The “IC50, pseudovirus neutralization” value [19] was 0.00374 µg/mL, the “IC80, pseudovirus neutralization” value [19] was 0.0107 µg/mL and the “IC50, pseudovirus neutralization” value [20] was 0.045 µg/mL. The “IC80, pseudovirus neutralization” value [20] was 0.232 µg/mL, the “IC50, pseudovirus neutralization” value [21] was 0.00235 µg/mL and the “IC80, pseudovirus neutralization” value [21] was 0.0123 µg/mL. For the same binder, the “IC50, pseudovirus neutralization” value [22] was 0.00217 µg/mL and the “IC80, pseudovirus neutralization” value [22] was 0.00705 µg/mL.
